# PubChem BioAssay AID624099, ICCB-Longwood | 2012
# Screen: 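Host factors E2 relies on to silence an HPV18 LCR reporter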 (primary screen)
# System: human C33A cervical carcinoma cells (HPV-negative) stably expressing BPV1 E2 and an HPV18 LCR luciferase reporter
# Knock-down reagent: siRNA pool against human genes, 40 nM
# Timing: 72 h
# Measured: 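Per-well luciferase luminescence, z-scored on each plate against the plate mean and SD with control wells left out, then averaged across three replicate plates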
# Direction: mean z-score and z-score: higher = stronger reporter signal, weaker E2 silencing
# Active means: 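Mean z ≥ 2 together with z ≥ 2 in two or more of the three replicates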
# Here is one part, drawn at random, of about 21,000 reagents tested. 497 of them (2.4%) were called active. 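Higher z means weaker E2 silencing; only reporter increases were scored, and knock-downs that hurt cell survival may mask genuine repressor factors.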
gene,mean z-score,"z-score, replicate A","z-score, replicate B","z-score, replicate C",Outcome
THBS4 (thrombospondin 4),0.29,0.01,0.15,0.69,inactive
FOLH1 (folate hydrolase 1),0.47,0.47,0.48,0.45,inactive
RPL7P23 (ribosomal protein L7 pseudogene 23),-5.36,-5.53,-5.46,-5.09,inactive
FSIP1 (fibrous sheath interacting protein 1),2.21,1.5,2.31,2.81,active
NOX4 (NADPH oxidase 4),2.37,2.89,2.16,2.05,active
ITGB3BP (integrin subunit beta 3 binding protein),0.31,0.38,0.34,0.2,inactive
KLRF1 (killer cell lectin like receptor F1),-0.41,-0.52,-0.4,-0.32,inactive
ACOT12 (acyl-CoA thioesterase 12),0.01,0.45,-0.33,-0.07,inactive
BLNK (B cell linker),1.61,1.86,1.5,1.48,inactive
CCDC134 (coiled-coil domain containing 134),-0.36,-0.17,0.04,-0.95,inactive
CDK18 (cyclin dependent kinase 18),-0.21,-0.06,-0.42,-0.14,inactive
SLC20A1,-0.16,-0.15,-0.3,-0.03,inactive
ANKRD50 (ankyrin repeat domain 50),-0.18,-0.14,-0.47,0.08,inactive
"CPXM1 (carboxypeptidase X, M14 family member 1)",-1.01,-1.05,-0.93,-1.04,inactive
POLR1C (RNA polymerase I and III subunit C),0.6,0.45,0.74,0.62,inactive
"NBPF2P (NBPF member 2, pseudogene)",0.6,0.59,0.54,0.66,inactive
EVX1 (even-skipped homeobox 1),1.1,1.35,1.33,0.61,inactive
CHRNA7 (cholinergic receptor nicotinic alpha 7 subunit),-0.28,-0.24,-0.26,-0.32,inactive
GLYATL2 (glycine-N-acyltransferase like 2),-1.54,-1.76,-1.62,-1.25,inactive
SYT11 (synaptotagmin 11),-0.14,0.31,-0.3,-0.41,inactive
PCDHB2 (protocadherin beta 2),0.05,0.12,-0.14,0.17,inactive
TAS2R14 (taste 2 receptor member 14),1.82,1.77,1.7,2,inactive
STARD7 (StAR related lipid transfer domain containing 7),0.55,0.25,0.58,0.82,inactive
GM2A (ganglioside GM2 activator),1.74,1.75,1.8,1.68,inactive
PDYN (prodynorphin),-1.02,-0.96,-1.08,-1.02,inactive
GPHA2 (glycoprotein hormone subunit alpha 2),-1.11,-0.78,-1.06,-1.49,inactive
LINC01588 (long independently transcribed non-coding RNA 1588),-1.14,-0.89,-1.3,-1.22,inactive
PCDHB8 (protocadherin beta 8),0.67,0.27,1.09,0.64,inactive
ONECUT2 (one cut homeobox 2),-0.43,-0.48,-0.29,-0.51,inactive
MAK (male germ cell associated kinase),0.7,0.85,0.36,0.89,inactive
CLEC1A (C-type lectin domain family 1 member A),-0.55,-0.8,-0.38,-0.46,inactive
GNG13 (G protein subunit gamma 13),0.72,0.9,0.84,0.42,inactive
LUM (lumican),0.03,-0.1,0.12,0.06,inactive
NCOA3 (nuclear receptor coactivator 3),1.25,1.05,1.43,1.27,inactive
TCERG1L (transcription elongation regulator 1 like),0.44,0.04,0.45,0.84,inactive
ZNF3 (zinc finger protein 3),0.51,0.22,0.51,0.78,inactive
BATF2 (basic leucine zipper ATF-like transcription factor 2),-0.92,-0.95,-0.89,-0.91,inactive
FSHR (follicle stimulating hormone receptor),-0.75,-0.41,-1.05,-0.77,inactive

In a second layout: entries from further up
{"gene":"ITGB3BP (integrin subunit beta 3 binding protein)","mean z-score":0.31,"z-score, replicate A":0.38,"z-score, replicate B":0.34,"z-score, replicate C":0.2,"Outcome":"inactive"}
{"gene":"KLRF1 (killer cell lectin like receptor F1)","mean z-score":-0.41,"z-score, replicate A":-0.52,"z-score, replicate B":-0.4,"z-score, replicate C":-0.32,"Outcome":"inactive"}
{"gene":"ACOT12 (acyl-CoA thioesterase 12)","mean z-score":0.01,"z-score, replicate A":0.45,"z-score, replicate B":-0.33,"z-score, replicate C":-0.07,"Outcome":"inactive"}
{"gene":"BLNK (B cell linker)","mean z-score":1.61,"z-score, replicate A":1.86,"z-score, replicate B":1.5,"z-score, replicate C":1.48,"Outcome":"inactive"}
{"gene":"CCDC134 (coiled-coil domain containing 134)","mean z-score":-0.36,"z-score, replicate A":-0.17,"z-score, replicate B":0.04,"z-score, replicate C":-0.95,"Outcome":"inactive"}
{"gene":"CDK18 (cyclin dependent kinase 18)","mean z-score":-0.21,"z-score, replicate A":-0.06,"z-score, replicate B":-0.42,"z-score, replicate C":-0.14,"Outcome":"inactive"}
{"gene":"SLC20A1","mean z-score":-0.16,"z-score, replicate A":-0.15,"z-score, replicate B":-0.3,"z-score, replicate C":-0.03,"Outcome":"inactive"}

The list goes on:
gene,mean z-score,"z-score, replicate A","z-score, replicate B","z-score, replicate C",Outcome
GHRL (ghrelin and obestatin prepropeptide),1.54,1.54,1.63,1.45,inactive
DIPK1C (divergent protein kinase domain 1C),0.08,-0.1,0.16,0.19,inactive
SLC35H1,-0.47,-0.54,-0.31,-0.55,inactive
TRIM17 (tripartite motif containing 17),-0.95,-0.91,-0.79,-1.17,inactive
COX4I1P1 (cytochrome c oxidase subunit 4I1 pseudogene 1),-1.69,-1.86,-1.39,-1.82,inactive
LIN54 (lin-54 DREAM MuvB core complex component),1.47,1.43,1.65,1.34,inactive
CNOT4 (CCR4-NOT transcription complex subunit 4),2.23,2.29,2.09,2.31,active
SET (SET nuclear proto-oncogene),-0.53,-0.53,-0.45,-0.61,inactive
ADI1 (acireductone dioxygenase 1),-1.16,-1.22,-1.02,-1.24,inactive
"ALG6 (ALG6 alpha-1,3-glucosyltransferase)",-1.11,-1.03,-1.18,-1.13,inactive
GLP2R (glucagon like peptide 2 receptor),0.07,-0.03,0.22,0.04,inactive
MFAP3 (microfibril associated protein 3),-0.98,-1.12,-0.95,-0.87,inactive
RCOR3 (REST corepressor 3),-0.06,0.18,-0.44,0.06,inactive
CARM1LP,0.36,0.44,0.61,0.03,inactive
BOLL (boule RNA binding protein),-0.65,-0.51,-0.59,-0.85,inactive
BLOC1S3 (biogenesis of lysosomal organelles complex 1 subunit 3),0.83,0.28,1.22,0.99,inactive
KDM2A (lysine demethylase 2A),-0.65,-0.41,-0.6,-0.93,inactive
KIR3DL2,0.05,-0.05,0.09,0.11,inactive
MAP2K7 (mitogen-activated protein kinase kinase 7),-0.44,-0.42,-0.21,-0.69,inactive
